Measured values reported in ChEMBL document CHEMBL1201862, “PubChem BioAssay data set” (2004).
The list shows a part of the results. The calls are words filed in the database; no cut-off is given here. These assays gave more results; the selection is not random.

assay: qHTS for Inhibitors of AMA1-RON; Towards Development of Antimalarial Drug Lead: Primary Screen.; format: functional

SMILES | Potency
O=[N+]([O-])c1cc([N+](=O)[O-])c(Nc2ccc(Cl)cc2)c([N+](=O)[O-])c1 | active: 28.2 µM
O=C1C(O)=C([N+](=O)[O-])C(=O)C(O)=C1[N+](=O)[O-] | active: 28.2 µM
Cc1ccc(Nc2c([N+](=O)[O-])cc([N+](=O)[O-])cc2[N+](=O)[O-])cc1 | active: 22.4 µM
